Read-outs that look alike come from different tables or passages of the source.
Test system: T. cruzi CA-I/72 intracellular amastigote
Experiment: Cell-based intracellular T. cruzi amastigote assay

Row | SMILES | LD50 (intracellular amastigotes in C2C12 cells, 72 h) | LD50
1 | CC[C@H](C)[C@@H](C(=O)O[C@@H](CC(C)C)C(=O)N[C@@H](CC(C)C)C(=O)N[C@@H](C)/C=C/C(=O)N1C(=O)C=C(OC)[C@@H]1C)N(C)C [compound 1, Gallinamide A] | 14.7 nM | 
2 | CC[C@H](C)[C@@H](C(=O)O[C@@H](CC(C)C)C(=O)N[C@@H](CC(C)C)C(=O)N[C@@H](C)/C=C/C(=O)N1C(=O)C=C(OC)[C@@H]1CC(C)C)N(C)C [compound 5, (S)-1-(((S)-1-(((S,E)-5-((S)-2-Isobutyl-3-methoxy-5-oxo-2,5-dihydro-1H-pyrrol-1-yl)-5-oxopent-3-en-2-yl)amino)-4-methyl-1-oxopentan-2-yl)amino)-4-methyl-1-oxopentan-2-yl dimethyl-L-isoleucinate] |  | 5.1 ± 1.4 nM
